Anti-infective test results gathered from many reports (values: NIAID ChemDB through PubChem).

All rows: growth or infection tests; agent: Human cytomegalovirus; cell line: MRC-5; measure: EC50

An empty or dashed field is not shown.

| smiles | strain | method | setting | value |
|---|---|---|---|---|
| CN(Cc1cnc2nc(N)nc(N)c2n1)c1ccc(C(=O)N[C@@H](CCC(=O)O)C(=O)O)cc1 | TOWNE | - | 24 h | >0.2 µM |
| Nc1nc2c(ncn2COC[C@H](O)CO)c(=O)[nH]1 | AD169 | plaque count | - | >25 µg/mL |
| CCc1cn([C@H]2C[C@H](O)[C@@H](CO)O2)c(=S)[nH]c1=O | AD169 | plaque count | - | >277.6 µM |
| Nc1nc(Cl)c2ncn(OCCOCP(=O)(O)O)c2n1 | AD169 | plaque count | - | 0.62 µM |
| CCOP(=O)(O)CCC(C)OCn1cnc2c(=O)[nH]c(N)nc21 | AD169 | plaque count | - | 660 µM |
| C[C@H]1[C@H](O)[C@@H](CO)O[C@H]1n1cc(I)c(N)nc1=O | AD169 | plaque count | - | >100 µg/mL |
| Nc1nc2c(ncn2COC(CO)CCP(=O)([O-])O)c(=O)[nH]1 | C8704 | plaque count | - | 15 µg/mL |
| CCCCCCCCCCCCCCCCCCOCCOP(=O)(O)CO[C@H](CO)Cn1ccc(N)nc1=O | WILD TYPE | plaque count | - | 0.00096 µM |
| CCOP(=O)(CCC(COC)OCn1cnc2c(=O)[nH]c(N)nc21)OCC | AD169 | plaque count | - | 133 µM |
| Nc1nc2c(ncn2COC(CO)CCP(=O)(O)O)c(=O)[nH]1 | AD169 | plaque count | - | 6.2 µM |
| Nc1ccn(C[C@H]2COP(=O)(O)CO2)c(=O)n1.O=C(O)P(=O)(O)O | AD169 (ganciclovir foscarnet-susceptible) | plaque count | - | 1 µM |
| OC[C@H]1O[C@@H](n2c(Br)nc3cc(Cl)c(Cl)cc32)[C@H](O)[C@@H]1O | 1038RB 8-3-3 (plaque-purified 1038RB strain) | plaque count | - | 18 µM |
| CCOP(=O)(CCCOCn1cnc2c(=O)[nH]c(N)nc21)OCC | AD169 | plaque count | - | >2780 µM |
| Nc1nc(=S)n([C@H]2C[C@H](O)[C@@H](CO)O2)cc1Br | AD169 | plaque count | - | >272 µM |
| Nc1nc2c(ncn2COC(CO)CO)c(=O)[nH]1 | PC92 (ganciclovir- foscarnet-susceptible) | plaque count | - | 2.42 µM |
| Nc1nc(=S)n([C@@H]2O[C@H](CO)[C@@H](O)[C@@H]2O)cc1/C=C/Br | 93-1R | plaque count | - | >213 µM |
| Nc1nc2c(ncn2COC(CO)CO)c(=O)[nH]1 | RC11 | ELISA | - | 14.5 µM |
| Cc1cn([C@@H]2O[C@H](CO)[C@@H](O)[C@@H]2O)c(=S)nc1N | AD169 | plaque count | - | >264.9 µM |
| Nc1nc(N)c2ncn(OCC(CO)OCP(=O)(O)O)c2n1 | AD169 | plaque count | - | >300 µM |
| NC1=NCCN1CC(=O)O | C8708 | plaque count | - | 9800 µM |
| O[C@@H]1[C@H](O)[C@H](O)CO[C@H]1n1c(Br)nc2cc(Cl)c(Cl)cc21 | AD169 | plaque count | - | 1.4 µM |
| Nc1ccn([C@@H]2O[C@H](CO)[C@@H](O)[C@H]2O)c(=S)n1 | AD169 | plaque count | - | >386 µM |
| [O-][n+]1onc2ncnc(N3CC[N+]4(CC3)CC[N+]3(CCN(c5ncnc6no[n+]([O-])c56)CC3)CC4)c21 | - | plaque count | - | 12.3 µM |
| Nc1nc2c(ncn2COC(CO)CO)c(=O)[nH]1 | 9219REC7 (LEU595DEL) | hybridisation | - | 1.8 µM |
| CCOP(=O)([O-])CCCOCn1cnc2c(=O)[nH]c(N)nc21 | C8704 | plaque count | - | 82 µg/mL |
| CCOP(=O)(O)CCCCCCCOCn1cnc2c(=O)[nH]c(N)nc21 | AD169 | plaque count | - | >2580 µM |
| O=C(O)/C=C/c1cn([C@@H]2O[C@H](CO)[C@@H](O)[C@@H]2O)c(=S)[nH]c1=O | AD169 | plaque count | - | >213 µM |
| CCCCCCCCCCCCCCCCOCCCOP(=O)(O)OCC(CO)OCn1cnc2c(=O)[nH]c(N)nc21 | Toledo | plaque count | - | 3.3 µM |
| COCC(CCP(=O)(O)O)OCn1cnc2c(Cl)nc(N)nc21 | AD169 | plaque count | - | 778 µM |
| Nc1nc2c(ncn2COCCO)c(=O)[nH]1 | AD169 | virus yield / luciferase | - | 24 µM |
| COCC(CCP(=O)(O)O)OCn1cnc2c(=O)[nH]c(N)nc21 | AD169 | plaque count | - | 479 µM |
| O=C(NCCc1ccccc1)C1=Cc2ccncc2CC1 | P8 | plaque count | - | 18 µM |
| O=c1[nH]c(=S)n([C@H]2C[C@H](O)[C@@H](CO)O2)cc1Br | AD169 | plaque count | - | 114 µM |
| Nc1nc2c(ncn2COC(CO)CO)c(=O)[nH]1 | AD169 | - | - | 1.6 µM |
| C#Cc1cn([C@H]2C[C@H](O)[C@@H](CO)O2)c(=O)[nH]c1=O | - | plaque count | - | 0.07 µM |
| CCOP(=O)(CCC(COC)OCn1cnc2c(Cl)nc(N)nc21)OCC | AD169 | plaque count | - | 112 µM |
| Nc1nc(=S)n([C@@H]2O[C@H](CO)[C@@H](O)[C@@H]2O)cc1Br | AD169 | plaque count | - | 2.81 µM |
| Nc1nc2c(ncn2COC(CO)CO)c(=O)[nH]1 | Isolate T1335 | plaque count | - | 2.96 µM |
| Nc1ccn(C[C@H]2COP(=O)(O)CO2)c(=O)n1 | C8914-6 drug-resistant mutant | plaque count | - | 1.45 µM |
| CCc1cn([C@H]2C[C@H](O)[C@@H](CO)O2)c(=S)nc1N | AD169 | plaque count | - | >277.4 µM |
| Nc1nc2c(ncn2COC(CO)COP(=O)(O)O)c(=O)[nH]1 | AD169 | plaque count | - | 11.7 µM |
| Nc1nc2c(ncn2[C@@H]2C[C@H](CO)[C@H]2CO)c(=O)[nH]1.O=C(O)P(=O)(O)O | Towne (ganciclovir- foscarnet-susceptible) | plaque count | - | 1.18 µM |
| Nc1nc2c(ncn2COC(CO)CO)c(=O)[nH]1 | Isolate 731 UL54 S655L N685S | ELISA | - | 6.7 µM |
| CCCN1C(=O)c2ccccc2N(Cc2ccc(Cl)cc2)S1(=O)=O | AD169 | plaque count | - | 6.8 µM |
| O=c1[nH]c(=S)n([C@@H]2O[C@H](CO)[C@@H](O)[C@@H]2O)cc1/C=C/Br | T-137 | plaque count | - | >213 µM |
| C[C@H]1[C@H](O)[C@@H](CO)O[C@H]1n1cc(Br)c(=O)[nH]c1=O | AD169 | plaque count | - | >100 µg/mL |
| Nc1nc2c(ncn2C[C@]2(CO)C[C@H]2CO)c(=O)[nH]1 | AD169 | plaque count | - | 9.2 µg/mL |
| CC(C)COC1=NS(=O)(=O)N(Cc2ccc(Cl)cc2)c2ccccc21 | AD169 | plaque count | - | 5.2 µM |
| O=c1[nH]c(=S)n([C@H]2C[C@H](O)[C@@H](CO)O2)cc1Cl | AD169 | plaque count | - | 211 µM |
| Nc1nc(=S)n([C@@H]2O[C@H](CO)[C@@H](O)[C@@H]2O)cc1CO | T-137 | plaque count | - | 149.5 µM |
| CCCCCCCCCCCCCCCCCCOCCOP1(=O)CO[C@@H](Cn2ccc(N)nc2=O)CO1 | C8708/17-1-1 | plaque count | - | 0.0025 µM |
| Nc1nc2c(ncn2COCCCP(=O)(O)O)c(=O)[nH]1 | AD169 | plaque count | - | 54 µM |
| Nc1nc(=O)n([C@@H]2O[C@H](CO)[C@@H](O)[C@@H]2F)cc1I | AD169 | plaque count | - | 0.8 µg/mL |
| O=C1c2ccccc2N(Cc2ccccc2)S(=O)(=O)N1Cc1cc(Cl)c(Cl)c(Cl)c1Cl | AD169 | plaque count | - | 6 µM |
| CCCOC1=NS(=O)(=O)N(Cc2ccc(Cl)cc2)c2ccccc21 | AD169 | plaque count | - | 2.7 µM |
| CCCc1cn([C@H]2C[C@H](O)[C@@H](CO)O2)c(=S)[nH]c1=O | T-137 | plaque count | - | >277.6 µM |
| CCCCN1C(=O)c2ccccc2N(C(=O)c2ccc(OC)cc2)S1(=O)=O | AD169 | plaque count | - | 3.2 µM |
| Nc1nc(=S)n([C@@H]2O[C@H](CO)[C@@H](O)[C@@H]2O)cc1/C=C/c1ccccc1 | AD169 | plaque count | - | >213 µM |
| Nc1ccn(C[C@H]2COP(=O)(O)CO2)c(=O)n1 | PAAR | plaque count | - | 0.53 µM |
| CCCCN1C(=O)c2ccccc2N(C(=O)c2ccc(Cl)cc2)S1(=O)=O | AD169 | plaque count | - | 2.2 µM |
| CC(C)Oc1ccccc1CNC(=O)c1ccc2cnccc2n1 | C8704 | plaque count | - | 0.03 µM |
| O=c1[nH]cnc2c1ncn2OCCOCP(=O)(O)O | AD169 | plaque count | - | >340 µM |
| Cc1cncc2ccc(C(=O)NCc3ccccc3OC(C)C)nc12 | D16 (ganciclovir-resistant UL54 mutant) | plaque count | - | 0.1 µg/mL |

6 of the rows above, restated:

{"smiles": "Nc1nc(=S)n([C@@H]2O[C@H](CO)[C@@H](O)[C@@H]2O)cc1CO", "strain": "T-137", "method": "plaque count", "value": "149.5 µM"}
{"smiles": "Cc1cn([C@@H]2O[C@H](CO)[C@@H](O)[C@@H]2O)c(=S)nc1N", "strain": "AD169", "method": "plaque count", "value": ">264.9 µM"}
{"smiles": "CCCOC1=NS(=O)(=O)N(Cc2ccc(Cl)cc2)c2ccccc21", "strain": "AD169", "method": "plaque count", "value": "2.7 µM"}
{"smiles": "CCc1cn([C@H]2C[C@H](O)[C@@H](CO)O2)c(=S)nc1N", "strain": "AD169", "method": "plaque count", "value": ">277.4 µM"}
{"smiles": "COCC(CCP(=O)(O)O)OCn1cnc2c(=O)[nH]c(N)nc21", "strain": "AD169", "method": "plaque count", "value": "479 µM"}
{"smiles": "CN(Cc1cnc2nc(N)nc(N)c2n1)c1ccc(C(=O)N[C@@H](CCC(=O)O)C(=O)O)cc1", "strain": "TOWNE", "setting": "24 h", "value": ">0.2 µM"}

ECn: concentration that inhibits the pathogen or its effect by n%. Rows are shuffled and stem from different studies.